The text below walks through data of PubChem BioAssay AID2606 (The Scripps Research Institute Molecular Screening Center, 2010).

The chains behind the UniProt entries cited, without tags or fusion partners.
UniProt P9WHR9, whole entry: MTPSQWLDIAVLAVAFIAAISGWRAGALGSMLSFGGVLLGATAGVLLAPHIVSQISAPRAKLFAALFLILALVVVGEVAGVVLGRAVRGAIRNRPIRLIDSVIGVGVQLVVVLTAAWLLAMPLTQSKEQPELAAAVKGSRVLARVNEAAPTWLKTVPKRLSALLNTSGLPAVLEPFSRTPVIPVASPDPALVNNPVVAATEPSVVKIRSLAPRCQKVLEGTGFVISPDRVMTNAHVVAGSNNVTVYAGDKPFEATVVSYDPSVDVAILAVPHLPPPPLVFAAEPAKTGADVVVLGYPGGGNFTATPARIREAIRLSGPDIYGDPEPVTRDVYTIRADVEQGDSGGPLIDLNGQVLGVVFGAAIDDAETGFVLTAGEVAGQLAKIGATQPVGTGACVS

A word on the inhibition: it is the relative decrease from the control value, in per cent.

The structures appear in SMILES notation. The list shows a part of the results, in another mix than the full data. Some salts or complexes appear as unconnected parts, following the source record. The source made the active and inactive calls. Rule as the data show it: active = inhibition above about 38%; inactive = the rest.

For the assay, the target named is Serine protease Rv3671c (Mycobacterium tuberculosis (strain ATCC 25618 / H37Rv)) (UniProt P9WHR9). Description: Rv3671c serine protease inhibitors, primary screen, biochemical, fluorescence polarization, M. tuberculosis H37Rv (AID 2606).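 Also: extracellular domain of Rv3671c used as enzyme; 0% = enzyme with DMSO and 100% = no enzyme.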 The conditions noted are these: at 5.96 µM; hits give high values.
With `CP(=O)(OCCOc1ccccc1)OCCOc1ccccc1`, the inhibition was inactive: 5.75%. To `CP(=O)(Nc1ccc(Cl)cc1Cl)Oc1ccccc1` (configuration not stated) belongs inactive: 3.55%. To `Cc1cc(C)cc(OP(C)(=O)Nc2cccc(C(F)(F)F)c2)c1` (configuration not stated) belongs inactive: -11.8%; to `COc1ccc(OP(C)(=O)Nc2ccccc2Br)cc1` (configuration not stated), inactive: -3.02%; to `COc1ccccc1OP(C)(=O)Nc1ccc(C)c(C)c1` (configuration not stated), inactive: 4.45%. Next, `O=[N+]([O-])c1cc([N+](=O)[O-])c(Nc2ccccn2)c([N+](=O)[O-])c1`: inactive: -36.5%. Regarding `Cc1c(NP(C)(=O)Oc2ccc(C(C)C)cc2)c(=O)n(-c2ccccc2)n1C` (configuration not stated), the inhibition is inactive: -2%. Regarding `CCc1ccc(OP(C)(=O)O)cc1`, the inhibition was inactive: 6.65%.

As for `CP(=O)(Nc1ccccn1)Oc1ccccc1` (configuration not stated), the inhibition is inactive: 0.33%. On to `COc1ccccc1OP(C)(=O)Nc1ccc(C)cc1C` (configuration not stated), for which the inhibition was inactive: -2.91%. Next, `COc1ccccc1OP(C)(=O)Nc1ccc(Br)cc1` (configuration not stated): inactive: 2.28%; `CN(C)CCOC(=O)C(O)(c1ccccc1)C1CCCC1` (configuration not stated): inactive: 3.2%; `COc1ccc(OP(C)(=O)Nc2ccccn2)cc1` (configuration not stated): inactive: -7.2%. To `O=C(OCCN1CCN(CCOCc2ccccc2)CC1)C(O)(c1ccccc1)c1ccccc1` belongs inactive: -6.73%. To `O=C(OC1CN2CCC1CC2)c1ccc([N+](=O)[O-])cc1` (configuration not stated) belongs inactive: 1.32%. In the case of `COc1ccc2c(c1O)-c1c(O)c(OC)cc3c1[C@H](C2)[N+](C)(C)CC3.O=[N+]([O-])c1cc([N+](=O)[O-])c([O-])c([N+](=O)[O-])c1[O-]`, the inhibition is inactive: -3.49%.

Regarding `CC(C)c1ccc(OP(C)(=O)Nc2ccc(SC(F)(F)F)cc2)cc1` (configuration not stated), the inhibition is inactive: 0.4%.

On to `CP(=O)(Nc1ccccc1F)Oc1ccccc1` (configuration not stated), for which the inhibition is inactive: 1.02%. For the compound `CCN(CC)CCCOC(=O)C(O)(c1ccccc1)C1CCCCC1` (configuration not stated), the inhibition is inactive: 4.12%. Next, `O=[N+]([O-])c1cc([N+](=O)[O-])c(OC2CCCCC2O)c([N+](=O)[O-])c1` (configuration not stated): inactive: 2.28%; `CCCCCOc1ccc(NP(C)(=O)Oc2ccc(Cl)cc2Cl)cc1` (configuration not stated): inactive: 2.08%; `CP(=O)(Nc1ccccc1)Oc1ccc(F)cc1` (configuration not stated): inactive: 1.67%. To `COc1ccc(OP(C)(=O)Nc2ccc(SC(F)(F)F)cc2)cc1` (configuration not stated) belongs inactive: -5.29%; to `CCOC(=O)c1ccc(NP(C)(=O)Oc2ccc(F)cc2)cc1` (configuration not stated), inactive: -7.88%.

For the compound `O=[N+]([O-])c1cc([N+](=O)[O-])c(NCC2CCS(=O)(=O)C2)c([N+](=O)[O-])c1` (configuration not stated), the inhibition was inactive: -5.28%.

In the case of `COc1ccc(OP(C)(=O)Nc2cccc(Br)c2)cc1` (configuration not stated), the inhibition was inactive: -13.9%. For `COc1ccc(NP(C)(=O)Oc2ccccc2OC)cc1` (configuration not stated), the inhibition was inactive: -4.04%.

For `CN(C)CCOC(=O)C(O)(c1ccccc1)C1CCCCC1` (configuration not stated), the inhibition was inactive: -0.3%. To `CP(=O)(Nc1ccc2c(c1)OCCO2)Oc1ccccc1` (configuration not stated) belongs inactive: -5.65%; to `Cc1ccccc1NP(C)(=O)Nc1ccccc1C`, inactive: 0.73%.

In the case of `CP(=O)(Nc1ccc(SC(F)(F)F)cc1)Oc1ccc(F)cc1` (configuration not stated), the inhibition was inactive: -3%. As for `CCOP(C)(=S)SCC(=O)NC(C)(CC)C(=O)O` (configuration not stated), the inhibition was inactive: -9.64%.
